Measured values from several laboratories, pooled; numbers as filed in NIAID ChemDB.

All rows: whole-cell or culture tests; agent: Mycobacterium tuberculosis

MIC50, MIC90 and the like: level of inhibition, or share of isolates inhibited. Conditions beyond the fields shown may differ between rows. An empty or dashed field is not shown. Percent inhibition refers to the dose given; in toxicity tests it is the harm to the cells. MIC bound comes from a single tested concentration. ECn is the concentration giving n% inhibition of infection, replication or growth.

structure,changes,read-out,strain,method,dose,result
O=C(N/N=C/c1cn(-c2ccc(Cl)cc2)nn1)c1ccncc1,,MIC,H37Rv,resazurin,,0.62 µg/mL
O=[N+]([O-])c1ccc(-c2cn3ccsc3n2)cc1,,inhibition,H37Rv,,6.25 µg/mL,0%
CCCCCCCCO[C@H]1O[C@H](CO[C@H]2O[C@H](CN(CC3CCCCC3)CC3CCCCC3)[C@@H](O)[C@@H]2O)[C@@H](O[Si](C)(C)C(C)(C)C)[C@@H]1O[Si](C)(C)C(C)(C)C,,MIC,H37Ra,,,>12.8 µg/mL
NNC(=O)c1ccncc1,,MIC,,,,0.4 µg/mL
CONC(=O)CN1OCC(N)C1=O,,MIC,,,,>2500 µM
O=C(N/N=C/C=C/c1ccccc1)c1ccccc1Cl,,MIC,,,,<40 µg/mL
CC[C@@H](CO)NCCN[C@@H](CC)CO,,MIC,Isolate I,,,>2.5 µg/mL
NC1CONC1=O,,MIC,,,,300 µM
O=C(NNS(=O)(=O)c1ccc(Cl)c(Cl)c1)c1ccccc1,,MIC,,,,200 µg/mL
C[C@H]1COc2c(N3CCN(C)CC3)c(F)cc3c(=O)c(C(=O)O)cn1c23,,MIC,CSU25,,,≤0.125 µg/mL
CO/N=C1\C[C@@H](C)O[C@@H](O[C@@H]2[C@@H](C)[C@H](O[C@H]3C[C@H](C)N(C4CCC4)C[C@H](C)O3)[C@@H](C)C(=O)O[C@H]([C@@H](C)CO[C@@H]3O[C@H](C)[C@@H](O)[C@@H](OC)[C@H]3OC)[C@H](C)[C@@H](OC(=O)CC(C)C)[C@@H](C)C(=O)[C@@](C)(OC(=O)N3CCO[C@@H](C)C3)C[C@@H]2C)[C@@H]1O,,MIC,H37Rv,resazurin,,0.809 µM
CC[C@@H](/C=C/[C@@H](C)[C@H]1CCC2C34C=CC5(C[C@@H](O)CC[C@]5(C)C3CC[C@@]21C)OO4)C(C)C,,MIC,H37Rv (ATCC 27294),,,2 µg/mL
CC(C)=CCC1C(=O)C(CC=C(C)C)(CC=C(C)C)C(O)C(C(=O)C(C)C)C1O,,MIC,Isolate L,,,55.8 µg/mL
C=C1CCCC(C)(C)[C@@H]1CC/C(C)=C\Cn1c2cccc(=O)c-2nc2ccccc21,,MIC,H37Rv,BACTEC,,>4 µg/mL
O=Nc1c(-c2ccc(Cl)cc2)nc2sc(Cl)cn12,,inhibition,H37Rv,,6.25 µg/mL,6%
CCOc1ccc(-c2nc(-c3oc4ccccc4c(=O)c3OC(C)=O)cs2)cc1,,inhibition,H37Rv,BACTEC,12.5 µg/mL,0%
O=Nc1c(-c2ccc(Cl)cc2)nc2sccn12,,MIC,H37Rv,,,0.39 µg/mL
CCOC(=O)c1c(Sc2ccc([N+](=O)[O-])cc2[N+](=O)[O-])nc2c3ccccc3ccn12,,MIC bound,H37Rv,resazurin,,>6.25 µg/mL
CCCCCC/C=C/CCc1ccc(O)cc1,,MIC,H37Rv,MTT,,128 µM
Nc1ccc(-c2cn3cc(Cl)sc3n2)cc1,,inhibition,H37Rv,,6.25 µg/mL,0%
O=C(NNCc1ccco1)c1ccccc1,,MIC,,,,100 µg/mL
CC(NC(=O)C1CCCN1C(=O)OC(C)(C)C)C(=O)OCc1ccccc1,,MIC bound,H37Rv,BACTEC,,>12.5 µg/mL
O=C1NNC(=S)NN1,,MIC,,,,>200 µg/mL
O=C(CNC(=O)n1ccnc1)N/N=C/c1ccco1,,inhibition,H37Rv,BACTEC,12.5 µg/mL,27%
NNC(=O)c1ccncc1,,MIC,Isolate L,,,>0.2 µg/mL
NC1CON(Cc2ccccc2)C1=O,,MIC,,,,>2500 µM
CC(=O)Nc1nc(C(N)=O)cs1,,MIC bound,H37Rv,BACTEC,,>12.5 µg/mL
CCCCCCCCCCCC(=O)OCC1OC(O[C@H]2CC[C@@]3(C)C(=CCC4C3CC[C@@]3(C)C4CC[C@@H]3[C@H](C)CC[C@@H](CC)C(C)C)C2)C(O)C(O)C1O,,MIC,H37Rv (ATCC 27294),,,32 µg/mL
COc1cc(CC(C)C(C)Cc2ccc3c(c2)OCO3)ccc1O,,MIC,H37Rv,MTT,,128 µM
C=C[C@]1(C)CC=C2C(CCC3[C@](C)(C(=O)O)CCC[C@@]23C)C1,,MIC,H37Rv (ATCC 27294),,,128 µg/mL
COc1ccc(C(=O)NNC(=O)c2ccc(OC)cc2)cc1,,MIC,,,,>200 µg/mL
CC[C@H](CC[C@@H](C)[C@H]1CC[C@H]2[C@@H]3CC=C4C[C@@H](O)CC[C@]4(C)[C@H]3CC[C@]12C)C(C)C,,MIC,H37Rv (ATCC 27294),,,128 µg/mL
CC(=O)NNS(=O)(=O)c1ccc(NC(C)=O)cc1,,MIC,,,,>200 µg/mL
[N-]=[N+]=Nc1nn2cnnc2c2[nH]c3ccccc3c12,,MIC bound,H37Rv,resazurin,,>6.25 µg/mL
COc1cccc(-c2cn3cc(Cl)sc3n2)c1,,inhibition,H37Rv,,6.25 µg/mL,0%
CO[C@H]1/C=C/O[C@@]2(C)Oc3c(C)c(O)c4c(O)c(c5c(c4c3C2=O)NC2(CCN(CC(C)C)CC2)N=5)=NC(=O)/C(C)=C\C=C\[C@H](C)[C@H](O)[C@@H](C)[C@@H](O)[C@@H](C)[C@H](OC(C)=O)[C@@H]1C,,MIC,CSU21,,,8 µg/mL
CCOc1ccc(C(=O)N/N=C/c2ccccc2)cc1,,MIC,,,,200 µg/mL
COc1cc(C2=N/C(=C\c3cccs3)C(=O)O2)cc(OC)c1OC,,inhibition,H37Rv,BACTEC,12.5 µg/mL,30%
CCCCCCCCO[C@H]1O[C@H](CO[C@H]2O[C@H](CNS(=O)(=O)CC)[C@@H](O[Si](C)(C)C(C)(C)C)[C@@H]2O[Si](C)(C)C(C)(C)C)[C@@H](O[Si](C)(C)C(C)(C)C)[C@@H]1O[Si](C)(C)C(C)(C)C,,MIC,H37Ra,,,>12.8 µg/mL
CCCCCCN(CCCCCC)C1=CC(=O)C(=O)c2ccccc21,,MIC bound,H37Rv,resazurin,,>6.25 µg/mL
O=[N+]([O-])c1cn2c(n1)OC[C@@H](OCc1ccc(C(F)(F)F)nc1)C2,,MIC90,H37Rv,low oxygen,,0.53 µM
O=c1c2ccccc2nnn1CCc1ccccc1,,MIC bound,H37Rv,BACTEC,,>12.5 µg/mL
O=C(CC(=O)N/N=C/c1ccoc1)N/N=C/c1ccoc1,,MIC,,,,>100 µg/mL
COc1ccccc1-c1cn2ccsc2n1,,MIC,H37Rv,,,>6.25 µg/mL
CC(=O)OC1CCC2(C)C3=C(C(=O)CC2C1(C)C)C1(C)CCC(C(C)CCCC(C)C)C1(C)CC3=O,,MIC,H37Rv,BACTEC,,≥128 µg/mL
C=C(C)[C@@H]1CC[C@]2(C)CCC3(C)[C@H](CC[C@@H]4[C@@]5(C)CC[C@H](O)C(C)(C)[C@@H]5CC[C@]43C)[C@@H]12,,MIC,H37Rv (ATCC 27294),,,128 µg/mL
c1ccc(-c2cn3ccsc3n2)cc1,,MIC,H37Rv,,,>6.25 µg/mL
CCN(CC)CCN1c2ccc(OC)cc2Sc2ccc3ccccc3c21,,inhibition,H37Rv,BACTEC,12.5 µg/mL,99%
CO/N=C1\C[C@@H](C)O[C@@H](O[C@@H]2[C@@H](C)[C@H](O[C@H]3C[C@@H](C)N(CC(C)(C)O)C[C@H](C)O3)[C@@H](C)C(=O)O[C@H]([C@@H](C)CO[C@@H]3O[C@H](C)[C@@H](O)[C@@H](OC)[C@H]3OC)[C@H](C)[C@@H](OC(=O)CC(C)C)[C@@H](C)C(=O)[C@@](C)(OC(=O)N3CCO[C@@H](C)C3)C[C@@H]2C)[C@@H]1O,,MIC,H37Rv,resazurin,,0.7 µM
COCCN1OCC(N)C1=O,,MIC,,,,>2500 µM
CCC[CH2][Sn]1([CH2]CCC)[O]C(=O)CN=Cc2c(ccc3ccccc23)[O]1,,MIC,H37Rv,BACTEC,,≥12.5 µg/mL
C[C@@H]1CC[C@]2(C(=O)O)CCC3C(=CCC4[C@@]3(C)CCC3C(C)(C)[C@H](O)CC[C@@]34C)C2[C@H]1C,,MIC,H37Rv (ATCC 27294),,,8 µg/mL
S=C(S)NNc1ccccc1,,MIC,EMB-R,,,>12.5 µg/mL
NNC(=O)c1ccncc1,,MIC,CSU11,,,2 µg/mL
NNC(=O)c1ccc(-c2ccc[nH]2)[nH]1,,MIC bound,H37Rv,BACTEC,,>12.5 µg/mL
CO/N=C1\C[C@@H](C)O[C@@H](O[C@@H]2[C@@H](C)[C@H](O[C@H]3C[C@@H](C)N(C)C[C@H](C)O3)[C@@H](C)C(=O)O[C@H]([C@@H](C)CO[C@@H]3O[C@H](C)[C@@H](O)[C@@H](OC)[C@H]3OC)[C@H](C)[C@@H](OC(=O)CC(C)C)[C@@H](C)C(=O)[C@@](C)(OC(=O)N3CCO[C@@H](C)C3)C[C@@H]2C)[C@@H]1O,,MIC,H37Rv,resazurin,,0.527 µM
CCCCCCCCO[C@H]1O[C@H](CO[C@H]2O[C@H](CNC(=O)c3ccccc3)[C@@H](O[Si](C)(C)C(C)(C)C)[C@@H]2O[Si](C)(C)C(C)(C)C)[C@@H](O[Si](C)(C)C(C)(C)C)[C@@H]1O[Si](C)(C)C(C)(C)C,,MIC,H37Ra,,,>12.8 µg/mL
COC(=O)CN1OCC(N)C1=O,,MIC,,,,>2500 µM
CN[C@@H]1[C@H](O[C@H]2[C@H](O[C@H]3[C@H](O)[C@@H](O)[C@H](N=C(N)N)[C@@H](O)[C@@H]3N=C(N)N)O[C@@H](C)[C@]2(O)C=O)O[C@@H](CO)[C@H](O)[C@H]1O,,MIC90,38 strains,,,50 µg/mL
C[C@@H]1CN(c2c(F)c(N)c3c(=O)c(C(=O)O)cn(C4CC4)c3c2F)C[C@H](C)N1,,MIC,CSU15,,,≤0.125 µg/mL
NC1CON(Cc2ccc(F)cc2)C1=O,,MIC,,,,>2500 µM
CCCCCCCCO[C@H]1O[C@H](CO[C@H]2O[C@H](CNC(=O)c3ccccc3)[C@@H](O)[C@@H]2O)[C@@H](O)[C@@H]1O,,MIC,H37Ra,,,>12.8 µg/mL
COc1ccc2c(c1)OC[C@@H]1c3cc(NS(=O)(=O)c4ccccc4)cc(OCc4ccccc4)c3O[C@H]21,,MIC bound,H37Rv,BACTEC,,>12.5 µg/mL
CC(C)[C@@H]1C2[C@H](O)[C@]3(O)[C@@H](C)CC[C@@H]4[C@@H](C)C[C@@H]1[C@@]43C(=O)C2(C)C,,EC50,H37Rv,,,>12.5 µg/mL
COC(=O)c1n[nH]c(C)c1N=NN1CCC(C(N)=O)CC1,,MIC bound,H37Rv,resazurin,,<6.25 µg/mL
FC(F)(F)c1cccc(-c2cn3cc(Cl)sc3n2)c1,,inhibition,H37Rv,,6.25 µg/mL,74%
COCCN1C[C@H](C)O[C@@H](O[C@H]2[C@H](C)[C@@H](O[C@@H]3O[C@H](C)C/C(=N\OC)[C@H]3O)[C@@H](C)C[C@](C)(OC(=O)N3C[C@@H](C)O[C@@H](C)C3)C(=O)[C@H](C)[C@H](OC(=O)CC(C)C)[C@@H](C)[C@@H]([C@@H](C)CO[C@@H]3O[C@H](C)[C@@H](O)[C@@H](OC)[C@H]3OC)OC(=O)[C@@H]2C)C[C@H]1C,,MIC,H37Rv,resazurin,,0.688 µM
CCCCCCCCCCCCCCCCCC(=O)O[C@H]1CC[C@]2(C)C3CC[C@@]4(C)C(CC[C@@H]4[C@H](C)/C=C/[C@H](C)C(C)C)C34C=CC2(C1)OO4,,MIC,H37Rv (ATCC 27294),,,4 µg/mL
CCOC(=O)NNC(=O)NCCNC(=O)NNC(=O)OCC,,inhibition,H37Rv,resazurin,6.25 µg/mL,-6%
CC(=O)Nc1ccc(/C=N/NC(N)=S)cc1F,Isoniazid-resistant,MIC90,H37Rv,resazurin,,<0.1 µg/mL
NNC(=O)c1ccncc1,DG167-resistant,MIC,DRM167 32x11,resazurin,,0.19 µM
CC(=O)C1(N=Nc2ccc(S(=O)(=O)NC3NCCS3)cc2)CCOC1=O,,inhibition,H37Rv,BACTEC,12.5 µg/mL,15%
CO/N=C1\C[C@@H](C)O[C@@H](O[C@@H]2[C@@H](C)[C@H](O[C@H]3C[C@@H](C)N(C)C[C@H](C)O3)[C@@H](C)C(=O)O[C@H]([C@@H](C)CO[C@@H]3O[C@H](C)[C@@H](O)[C@@H](OC)[C@H]3OC)[C@H](C)[C@@H](OC(=O)CC(C)C)[C@@H](C)C(=O)[C@@](C)(OC(=O)N3CCO[C@H](C)C3)C[C@@H]2C)[C@@H]1O,,MIC,H37Rv,resazurin,,0.796 µM
CO[C@H]1/C=C/O[C@@]2(C)Oc3c(C)c(O)c4c(O)c(c(/C=N/N5CCN(C)CC5)c(O)c4c3C2=O)NC(=O)/C(C)=C\C=C\[C@H](C)[C@H](O)[C@@H](C)[C@@H](O)[C@@H](C)[C@H](OC(C)=O)[C@@H]1C,,MIC90,38 strains,,,>100 µg/mL
O=C(Nc1ccccc1)c1cc(-n2cnc([N+](=O)[O-])c2)ccn1,,MIC,FQR-M70,,,0.313 µg/mL
O=C(NN=C1CCCC1)c1ccccc1Cl,,MIC,,,,100 µg/mL